PubChem BioAssay AID504761, Drosophila RNAi Screening Center, 2011
Screen: 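Fly genes whose silencing reduces dengue virus type 2 infection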 (primary screen). Cell system: D.Mel-2 cells from Drosophila. Knock-down reagent: long dsRNA against Drosophila genes. Conditions: infection with dengue virus type 2; dose and infection time not stated. Detection: 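Cells stained for dengue envelope protein and imaged; percent of infected cells per well on duplicate plates, ranked by infection, with stained nuclei counted for cell number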. Reading the numbers: infection score: higher = more virus-infected cells; cell count: higher = more cells in the well. Active means: 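Low infection ranks in the two replicates (chance level up to 0.065) followed by a retest with a 1.5-fold or larger significant decrease, p below 0.05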. Meaning of the calls: active = confirmed: knock-down lowers infection; inactive = not picked or not confirmed.
The screen tested about 22,000 reagents; shown is a random part of those with a known target gene and a result. Of all reagents, 116 (0.52%) got an active call. 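Calls depend on retest data that are not deposited; infection was ranked per plate without normalising between plates; the unit of the infection score is not given.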 The raw values are shown without normalisation. Entries without a mark were called inactive. The numbers tell different reagents against one gene apart. Further read-outs or replicates are left out here. The record does not give: the amount of reagent, the time to read-out.

{"gene": "CG15515", "reagent": 1, "infection score, replicate 1": 1.81, "cell count, replicate 1": 6084}
{"gene": "cdm", "reagent": 1, "infection score, replicate 1": 14.6, "cell count, replicate 1": 5429}
{"gene": "dpr14", "reagent": 1, "infection score, replicate 1": 9.06, "cell count, replicate 1": 6526}
{"gene": "dpr14", "reagent": 2, "infection score, replicate 1": 5.92, "cell count, replicate 1": 5574}
{"gene": "Smyd4-4", "reagent": 1, "infection score, replicate 1": 18.9, "cell count, replicate 1": 5403}
{"gene": "CG14111", "reagent": 1, "infection score, replicate 1": 3.54, "cell count, replicate 1": 6124}
{"gene": "CG14111", "reagent": 2, "infection score, replicate 1": 30.5, "cell count, replicate 1": 4991}

An excerpt taken from the entries so far, for reference:
{"gene": "CG14111", "reagent": 1, "infection score, replicate 1": 3.54, "cell count, replicate 1": 6124}
{"gene": "CG14111", "reagent": 2, "infection score, replicate 1": 30.5, "cell count, replicate 1": 4991}

The list goes on:
{"gene": "anne", "reagent": 1, "infection score, replicate 1": 0.76, "cell count, replicate 1": 4184}
{"gene": "anne", "reagent": 2, "infection score, replicate 1": 14, "cell count, replicate 1": 5123}
{"gene": "CG30002", "reagent": 1, "infection score, replicate 1": 4.7, "cell count, replicate 1": 6112}
{"gene": "CG30002", "reagent": 2, "infection score, replicate 1": 4.17, "cell count, replicate 1": 6900}
{"gene": "CG30154", "reagent": 1, "infection score, replicate 1": 2.01, "cell count, replicate 1": 6303}
{"gene": "CG30154", "reagent": 2, "infection score, replicate 1": 17.2, "cell count, replicate 1": 5665}
